Sequence variants of PSTVd loop 15 after infection

Reference: Wu et al. 2024, doi:10.1371/journal.ppat.1012142.

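Three N. benthamiana plants were inoculated with the whole mutant pool. Progeny were sequenced from the inoculated region (day 5), the margin of the inoculated leaf (day 10) and systemic leaves (day 12).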

The pool varies loop 15 of the PSTVd intermediate strain in the pattern GGAAACCGNNNNNNC; wild type is GGAAACCGCUACUAC (upper and lower strand joined, each 5' to 3', the first 7 letters being the upper strand, closing pairs included).

Values are reads per thousand in the sample; higher means more abundant, 0 means not found.
Each value is the mean of three plants.
"Pool" is the share in the plasmid pool used as inoculum, on the same scale.
The inoculated region was read from the minus strand, the other sites from the plus strand.
For reference, wild type rose from 33.9 per thousand in the pool to 202, 200, 159 (inoculated region), 724, 746, 710 (leaf margin) and 856, 883, 880 (systemic leaves).
Samples held 43,870 to 66,106 reads, so the smallest values rest on one or two reads.
The authors trace changes outside the varied positions to PCR and sequencing errors or to mutation in the plant; presence does not show that a variant is infectious alone.

For GGAAACCGGUAGAUC (pool 0.0640) the result was inoculated region 0.274; leaf margin 0.103; systemic leaves 0.0509.
For GGAAACCGAAAUGGC (pool 0.256) the result was inoculated region 0.245; leaf margin 0.0241; systemic leaves 0.00537.
For GGAAACCGGCGGGCC (pool 0.320) the result was inoculated region 0.0631; leaf margin 0.0195; systemic leaves 0.
For GGAAACCGACCCGCC (pool 0.224) the result was inoculated region 0.0742; leaf margin 0.0108; systemic leaves 0.0161.
For GGAAACCGUACGUCC (pool 0.240) the result was inoculated region 0.425; leaf margin 0.137; systemic leaves 0.0335.
For GGAAACCGCAUUGUC (pool 0.256) the result was inoculated region 0.0892; leaf margin 0; systemic leaves 0.
For GGAAACCGGCCGUCC (pool 0.256) the result was inoculated region 0.0534; leaf margin 0.00742; systemic leaves 0.
For GGAAACCGGAUAAUC (pool 0.208) the result was inoculated region 0.0841; leaf margin 0.0175; systemic leaves 0.
For GGAAACCGCAUCUGC (pool 0.128) the result was inoculated region 0.173; leaf margin 0.00742; systemic leaves 0.00537.
For GGAAACCGGAAUGUC (pool 0.192) the result was inoculated region 0.0836; leaf margin 0.442; systemic leaves 0.
For GGAAACCGUACACGC (pool 0.320) the result was inoculated region 0.119; leaf margin 0.00539; systemic leaves 0.00760.
For GGAAACCGCAAGUUC (pool 0.304) the result was inoculated region 0.361; leaf margin 0.0741; systemic leaves 0.0509.
For GGAAACCGGGCUUGC (pool 0.192) the result was inoculated region 0.118; leaf margin 0.00668; systemic leaves 0.
For GGAAACCGCGUAUAC (pool 0.192) the result was inoculated region 0.341; leaf margin 0.137; systemic leaves 0.0107.
For GGAAACCGUCGACAC (pool 0.112) the result was inoculated region 0.106; leaf margin 0.00539; systemic leaves 0.
For GGAAACCGUCAGAGC (pool 0.192) the result was inoculated region 0.288; leaf margin 0.123; systemic leaves 0.0107.
For GGAAACCGCUCCUCC (pool 0.224) the result was inoculated region 0.0923; leaf margin 0.0403; systemic leaves 0.0211.
For GGAAACCGAGGGUCC (pool 0.240) the result was inoculated region 0.141; leaf margin 0.00668; systemic leaves 0.
For GGAAACCGACUUAGC (pool 0.208) the result was inoculated region 0.0749; leaf margin 0.0128; systemic leaves 0.
For GGAAACCGUCCGGCC (pool 0.192) the result was inoculated region 0.0832; leaf margin 0; systemic leaves 0.
For GGAAACCGGGUAAUC (pool 0.208) the result was inoculated region 0.117; leaf margin 0.00668; systemic leaves 0.
For GGAAACCGAGUAAAC (pool 0.240) the result was inoculated region 0.0851; leaf margin 0.0121; systemic leaves 0.
For GGAAACCGAAGUAGC (pool 0.192) the result was inoculated region 0.107; leaf margin 0.00539; systemic leaves 0.
For GGAAACCGGUUCCGC (pool 0.272) the result was inoculated region 0.0795; leaf margin 0.00668; systemic leaves 0.
For GGAAACCGAGAUAGC (pool 0.240) the result was inoculated region 0.126; leaf margin 0.00539; systemic leaves 0.
For GGAAACCGGUCCGAC (pool 0.176) the result was inoculated region 0.0889; leaf margin 0; systemic leaves 0.
For GGAAACCGAAGUAUC (pool 0.128) the result was inoculated region 0.122; leaf margin 0.00668; systemic leaves 0.
For GGAAACCGCGCGCAC (pool 0.160) the result was inoculated region 0.121; leaf margin 0.0215; systemic leaves 0.
For GGAAACCGAAACUUC (pool 0.208) the result was inoculated region 0.652; leaf margin 0.0901; systemic leaves 0.0996.
For GGAAACCGUCAGGGC (pool 0.288) the result was inoculated region 0.111; leaf margin 0.00742; systemic leaves 0.00537.
For GGAAACCGAUCGCCC (pool 0.208) the result was inoculated region 0.107; leaf margin 0.0121; systemic leaves 0.00537.
For GGAAACCGUCUCAGC (pool 0.288) the result was inoculated region 0.109; leaf margin 0; systemic leaves 0.
For GGAAACCGAGUUGCC (pool 0.208) the result was inoculated region 0.0551; leaf margin 0.00742; systemic leaves 0.00537.

The last 4 entries again:

sequence	pool	inoculated region	leaf margin	systemic leaves
GGAAACCGUCAGGGC	0.288	0.111	0.00742	0.00537
GGAAACCGAUCGCCC	0.208	0.107	0.0121	0.00537
GGAAACCGUCUCAGC	0.288	0.109	0	0
GGAAACCGAGUUGCC	0.208	0.0551	0.00742	0.00537